According to US9932570B2 (priority 2015, dated 2018):
Where “and” joins values, the source holds several entries; their conditions need not be identical. Equal values may be shown once. Read-outs that look alike come from different tables or passages of the source.

How the values were obtained:
Anthrax lethal factor [1] = molecular target: T1, Anthrax lethal factor (Bacillus anthracis, UniProt P15917, A299S)
Anthrax lethal factor [2] = molecular target: T1, Anthrax lethal factor; details: for LOD: LF in neat plasma; for 3x standard deviation + the average: blanks (0 pg LF, n=6); for Intercept / Slope: peak area vs LF concentration
Anthrax lethal factor [3] = molecular target: T1, Anthrax lethal factor; details: assay buffer
[4] = LF 5 pg/ml neat plasma, 2 hour digest
[5] = LF 5 pg/ml neat plasma, 3.5 hour digest
[6] = LF 5 pg/ml neat plasma, 5 hour digest
[7] = LF 5 pg/ml neat plasma, overnight digest (RT)
[8] = LF 10 pg/ml neat plasma, 2 hour digest
[9] = LF 10 pg/ml neat plasma, 3.5 hour digest
[10] = LF 10 pg/ml neat plasma, 5 hour digest
[11] = LF 10 pg/ml neat plasma, overnight digest (RT)
[12] = LF 20 pg/ml neat plasma, 3.5 hour digest
[13] = LF 20 pg/ml neat plasma, 5 hour digest
[14] = LF 20 pg/ml neat plasma, overnight digest (RT)
[15] = LF 50 pg/ml neat plasma, 2 hour digest
[16] = LF 50 pg/ml neat plasma, 3.5 hour digest
[17] = LF 50 pg/ml neat plasma, 5 hour digest
[18] = LF 50 pg/ml neat plasma, overnight digest (RT)

**Q.** For `CC(=O)N[C@@H](CCCNC(=N)N)C(=O)N[C@@H](CCCNC(=N)N)C(=O)N[C@@H](CCCCN)C(=O)N[C@@H](CCCCN)C(=O)N[C@H](C(=O)N[C@@H](Cc1ccc(O)cc1)C(=O)N1CCC[C@H]1C(=O)Nc1ccc2c(C)cc(=O)oc2c1)C(C)C` [LBL 10079], which “Fluorescence as a function of LF concentration in 1:10 diluted plasma” value (Anthrax lethal factor [1]; 1:10 diluted plasma) is on record?
**A.** The value was “did not correlate with the amount of LF”.

**Q.** For `CC(=O)N[C@@H](CCCNC(=N)N)C(=O)N[C@H](CCCNC(=N)N)C(=O)N[C@H](CCCCN)C(=O)N[C@H](CCCCN)C(=O)N[C@H](C(=O)N[C@@H](Cc1ccc(O)cc1)C(=O)N1CCC[C@H]1C(=O)Nc1ccc2c(C)cc(=O)oc2c1)C(C)C` [LBL 10081], which “Limit of detection at all time points” value (Anthrax lethal factor [2]; 2, 3.5, 5 hr and overnight digests) is on record?
**A.** Its value is “less than 5 pg LF/ml of neat plasma”.

**Q.** What about the “Peak area, Average” value (Anthrax lethal factor [2]; LF 0 pg/ml neat plasma, 2 hour digest) of the same compound?
**A.** The value was 6006.

**Q.** And the “Peak area, Average” value (Anthrax lethal factor [2]; LF 0 pg/ml neat plasma, 3.5 hour digest)?
**A.** The value was 8815.

**Q.** What about the “Peak area, Average” value (Anthrax lethal factor [2]; LF 0 pg/ml neat plasma, 5 hour digest) of the same compound?
**A.** Its value is 10645.

**Q.** What about the “Peak area, Average” value (Anthrax lethal factor [2]; LF 0 pg/ml neat plasma, overnight digest (RT)) of the same compound?
**A.** Its value is 17136.

**Q.** What about the “Peak area (replicates)” value (Anthrax lethal factor [2]; [4]) of the same compound?
**A.** The value was 9414 and 8891.

**Q.** And the “Peak area, Average” value (Anthrax lethal factor [2]; [4])?
**A.** The value was 9153.

**Q.** What about the “Peak area (replicates)” value (Anthrax lethal factor [2]; [5]) of the same compound?
**A.** The value was 11466 and 13177.

**Q.** What about the “Peak area, Average” value (Anthrax lethal factor [2]; [5]) of the same compound?
**A.** Its value is 12322.

**Q.** And the “Peak area (replicates)” value (Anthrax lethal factor [2]; [6])?
**A.** The value was 14786 and 15119.

**Q.** And the “Peak area, Average” value (Anthrax lethal factor [2]; [6])?
**A.** The value was 14953.

**Q.** And the “Peak area (replicates)” value (Anthrax lethal factor [2]; [7])?
**A.** The value was 28485 and 25333.

**Q.** What about the “Peak area, Average” value (Anthrax lethal factor [2]; [7]) of the same compound?
**A.** The value was 26909.

**Q.** And the “Peak area (replicates)” value (Anthrax lethal factor [2]; [8])?
**A.** The value was 10657 and 9972.

**Q.** And the “Peak area, Average” value (Anthrax lethal factor [2]; [8])?
**A.** The value was 10315.

**Q.** What about the “Peak area (replicates)” value (Anthrax lethal factor [2]; [9]) of the same compound?
**A.** Its value is 16464 and 15348.

**Q.** What about the “Peak area, Average” value (Anthrax lethal factor [2]; [9]) of the same compound?
**A.** The value was 15906.

**Q.** What about the “Peak area (replicates)” value (Anthrax lethal factor [2]; [10]) of the same compound?
**A.** Its value is 22235 and 22382.

**Q.** And the “Peak area, Average” value (Anthrax lethal factor [2]; [10])?
**A.** The value was 22309.

**Q.** And the “Peak area (replicates)” value (Anthrax lethal factor [2]; [11])?
**A.** The value was 36468 and 36027.

**Q.** What about the “Peak area, Average” value (Anthrax lethal factor [2]; [11]) of the same compound?
**A.** The value was 36248.

**Q.** What about the “Peak area (replicates)” value (Anthrax lethal factor [2]; LF 20 pg/ml neat plasma, 2 hour digest) of the same compound?
**A.** Its value is 16883 and 14926.

**Q.** And the “Peak area (replicates)” value (Anthrax lethal factor [2]; [12])?
**A.** Its value is 24042 and 24282.

**Q.** And the “Peak area, Average” value (Anthrax lethal factor [2]; [12])?
**A.** Its value is 24162.

**Q.** And the “Peak area (replicates)” value (Anthrax lethal factor [2]; [13])?
**A.** The value was 31594 and 34237.

**Q.** What about the “Peak area, Average” value (Anthrax lethal factor [2]; [13]) of the same compound?
**A.** The value was 32916.

**Q.** And the “Peak area (replicates)” value (Anthrax lethal factor [2]; [14])?
**A.** Its value is 58250 and 57550.

**Q.** What about the “Peak area, Average” value (Anthrax lethal factor [2]; [14]) of the same compound?
**A.** The value was 57900.

**Q.** What about the “Peak area (replicates)” value (Anthrax lethal factor [2]; [15]) of the same compound?
**A.** Its value is 33668 and 33656.

**Q.** And the “Peak area, Average” value (Anthrax lethal factor [2]; [15])?
**A.** The value was 33662.

**Q.** And the “Peak area (replicates)” value (Anthrax lethal factor [2]; [16])?
**A.** Its value is 49662 and 48443.

**Q.** What about the “Peak area, Average” value (Anthrax lethal factor [2]; [16]) of the same compound?
**A.** The value was 49053.

**Q.** What about the “Peak area (replicates)” value (Anthrax lethal factor [2]; [17]) of the same compound?
**A.** The value was 67245 and 66068.

**Q.** And the “Peak area, Average” value (Anthrax lethal factor [2]; [17])?
**A.** Its value is 66657.

**Q.** What about the “Peak area (replicates)” value (Anthrax lethal factor [2]; [18]) of the same compound?
**A.** The value was 136035 and 124407.

**Q.** And the “Peak area, Average” value (Anthrax lethal factor [2]; [18])?
**A.** The value was 130221.

**Q.** And the LOD (Anthrax lethal factor [2]; 2 hr digest)?
**A.** The LOD was 2.9 pg/ml plasma.

**Q.** What about the LOD (Anthrax lethal factor [2]; 3.5 hr digest) of the same compound?
**A.** The LOD was 4.3 pg/ml plasma.

**Q.** What about the LOD (Anthrax lethal factor [2]; 5 hr digest) of the same compound?
**A.** The LOD was 2.2 pg/ml plasma.

**Q.** And the LOD (Anthrax lethal factor [2]; overnight digest (RT))?
**A.** Its LOD is 2.8 pg/ml plasma.

**Q.** And the “3x standard deviation + the average” value (Anthrax lethal factor [2]; 2 hr digest)?
**A.** Its value is 7189.

**Q.** What about the “3x standard deviation + the average” value (Anthrax lethal factor [2]; 3.5 hr digest) of the same compound?
**A.** Its value is 11735.

**Q.** And the “3x standard deviation + the average” value (Anthrax lethal factor [2]; 5 hr digest)?
**A.** The value was 12768.

**Q.** What about the “3x standard deviation + the average” value (Anthrax lethal factor [2]; overnight digest (RT)) of the same compound?
**A.** The value was 21393.

**Q.** And the Intercept (Anthrax lethal factor [2]; 2 hr digest)?
**A.** The Intercept was 5595 Peak area.

**Q.** And the Slope (Anthrax lethal factor [2]; 2 hr digest)?
**A.** The Slope was 553 Peak Area/pg LF.

**Q.** What about the Intercept (Anthrax lethal factor [2]; 3.5 hr digest) of the same compound?
**A.** The Intercept was 8256 Peak area.

**Q.** What about the Slope (Anthrax lethal factor [2]; 3.5 hr digest) of the same compound?
**A.** Its Slope is 811 Peak Area/pg LF.

**Q.** And the Intercept (Anthrax lethal factor [2]; 5 hr digest)?
**A.** Its Intercept is 10324 Peak area.

**Q.** And the Slope (Anthrax lethal factor [2]; 5 hr digest)?
**A.** Its Slope is 1127 Peak Area/pg LF.

**Q.** And the Intercept (Anthrax lethal factor [2]; overnight digest (RT))?
**A.** Its Intercept is 14916 Peak area.

**Q.** What about the Slope (Anthrax lethal factor [2]; overnight digest (RT)) of the same compound?
**A.** Its Slope is 2280 Peak Area/pg LF.

**Q.** What about the “Limit of detection, kinetic analysis (peak area vs time)” value (Anthrax lethal factor [2]; reaction rate method) of the same compound?
**A.** The value was “around 5 pg LF/ml neat plasma”.

**Q.** And the “Amount of hydrolysis by LF compared with LBL 10079 (no D-amino acids)” value (Anthrax lethal factor [3])?
**A.** Its value is “similar”.

**Q.** For `CC(=O)N[C@H](CCCNC(=N)N)C(=O)N[C@H](CCCNC(=N)N)C(=O)N[C@H](CCCCN)C(=O)N[C@H](CCCCN)C(=O)N[C@H](C(=O)N[C@@H](Cc1ccc(O)cc1)C(=O)N1CCC[C@H]1C(=O)Nc1ccc2c(C)cc(=O)oc2c1)C(C)C` [LBL 10097], which “Cleavage by LF compared with LBL 10081 (L-Arg at N-terminal)” value (Anthrax lethal factor [3]) is on record?
**A.** Its value is “similar”.

**Q.** What about the LOD (Anthrax lethal factor [1]; 5 hrs digest) of the same compound?
**A.** The LOD was 120 pg/ml of 1:10 diluted plasma.

**Q.** What about the “LOD × 10, neat plasma” value (Anthrax lethal factor [1]; 5 hrs digest) of the same compound?
**A.** Its value is 1200 pg/ml.

**Q.** What about the LOD (Anthrax lethal factor [1]; 24 hrs digest) of the same compound?
**A.** The LOD was 139 pg/ml of 1:10 diluted plasma.

**Q.** What about the “LOD × 10, neat plasma” value (Anthrax lethal factor [1]; 24 hrs digest) of the same compound?
**A.** The value was 1390 pg/ml.

**Q.** Which results are given for `CC(=O)N[C@@H](CCCNC(=N)N)C(=O)N[C@H](CCCNC(=N)N)C(=O)N[C@H](CCCCN)C(=O)N[C@H](CCCCN)C(=O)N[C@H](C(=O)N[C@@H](Cc1ccc(O)cc1)C(=O)N1CCC[C@H]1C(=O)Nc1ccc2c(C(F)(F)F)cc(=O)oc2c1)C(C)C` [LBL 10108]?
**A.** Fluorescence as a function of LF concentration in 1:10 diluted plasma (Anthrax lethal factor [1]; 1:10 diluted plasma): fluorescence increased as a function of LF concentration; Sensitivity compared to LBL 10081 or LBL 10097 (Anthrax lethal factor [1]; 1:10 diluted plasma): no significant improvement in the sensitivity
